Results of unrelated studies side by side (data: NIAID ChemDB).

All rows: whole-cell or culture tests; agent: Mycobacterium tuberculosis

MIC bound comes from a single tested concentration.

structure	read by	measure	mutations	strain or isolate	cell line	tested at	result
Nc1nc(N)c2nc3c(nc2n1)CCCCCCCCCC3	BACTEC	inhibition		H37Rv		12.5 µg/mL	-1%
CC(C)=CCC/C(C)=C/CC/C(C)=C/CO		MIC		H37Rv			8 µg/mL
CO/N=C1/C(=O)N(CCOCCOCCOCCn2c(O)c(N=NC(N)=O)c3cc(F)ccc32)c2ccc(F)cc21	visual reading	MIC		H37Rv			16 µg/mL
C[C@]1(C(=O)O)CCC[C@]2(C)C3=CC(=O)CCC3=CC[C@@H]12	BACTEC	MIC bound		H37Rv			>12.5 µg/mL
COc1cc(/C=N/NC(=O)c2cc(-c3ccc(F)cc3F)ccc2O)ccc1O	resazurin	inhibition		H37Rv		6.25 µg/mL	27%
COc1ccc(-c2cn3cc(Cl)sc3n2)cc1		inhibition		H37Rv		6.25 µg/mL	78%
Cc1ccc(C(=O)Nc2ncn[nH]2)c(O)c1		MIC		My 331/88			125 µM
CO/N=C1/C(=O)N(CCOCCOCCOCCN2C(=O)C(=O)c3cc(F)ccc32)c2ccc(C)cc21	visual reading	MIC		H37Rv			128 µg/mL
CC(C)C[C@@H]1NC(=O)[C@H](Cc2c[nH]c3ccccc23)NC(=O)[C@H](CCCCN)NC(=O)[C@H](CC(N)=O)NC(=O)[C@H](C(C)C)NC(=O)[C@@H](CC(C)C)NC1=O	turbidity	MIC90		HN353			>30 µM
Cc1oc(-c2ccccc2F)nc1C(N)=O	BACTEC	MIC bound		H37Rv			>12.5 µg/mL
CC(C)CCC[C@@H](C)CCC[C@@H](C)CCCC1(C)OC1CO		MIC		H37Rv			8 µg/mL
Cc1cc(C)nc(NC(=O)c2ccccc2O)n1		MIC		My 331/88			1000 µM
O=C(CSc1nnc(-c2ccccc2Cl)o1)c1ccccc1	BACTEC	inhibition		H37Rv		6.25 µg/mL	17%
CC(C)C[C@@H]1NC(=O)[C@H](Cc2c[nH]c3ccccc23)NC(=O)[C@@H](CCCN)NC(=O)[C@H](CC(N)=O)NC(=O)[C@H](C(C)C)NC(=O)[C@@H](CC(C)C)NC1=O	turbidity	EC50		HN353			1.42 µM
N#Cc1nc2ccccc2nc1Cl		inhibition		H37Rv		12.5 µg/mL	94%
O=C(Nc1cnccn1)c1cc(Br)ccc1O		MIC		My 331/88			125 µM
CO[C@H]1/C=C/O[C@@]2(C)Oc3c(C)c(O)c4c(O)c(c(/C=N/N5CCN(C)CC5)c(O)c4c3C2=O)NC(=O)/C(C)=C\C=C\[C@H](C)[C@H](O)[C@@H](C)[C@@H](O)[C@@H](C)[C@H](OC(C)=O)[C@@H]1C	BACTEC	MIC		Erdman			0.063 µg/mL
N#Cc1nc2cc(C(F)(F)F)ccc2nc1N		EC50		H37Rv			<12.5 µg/mL
O=C(CCC(F)(F)F)N1CC(c2cncc(Cl)c2)C1	fluorescence	EC50		H37Rv	THP-1		<0.05 µM
COc1ccc(OC)c(-c2cn3cc(Cl)sc3n2)c1		MIC		H37Rv			>6.25 µg/mL
NNC(=O)c1ccncc1	turbidity	EC50		H37Ra			0.05 µM
Nc1nc(N)c2c(n1)Nc1ccc(Cl)nc1S2	BACTEC	inhibition		H37Rv		12.5 µg/mL	32%
Clc1cn2cc(-c3ccc(Cl)c(Cl)c3Cl)nc2s1		inhibition		H37Rv		6.25 µg/mL	0%
C1COCCN1.S=C(S)NN1CCOCC1	BACTEC	MIC bound		H37Rv			>12.5 µg/mL
CN[C@@H]1[C@H](O[C@H]2[C@H](O[C@H]3[C@H](O)[C@@H](O)[C@H](N=C(N)N)[C@@H](O)[C@@H]3N=C(N)N)O[C@@H](C)[C@]2(O)C=O)O[C@@H](CO)[C@H](O)[C@H]1O		MIC		9465 (streptomycin isoniazid-R)			40 µg/mL
NC(N)=NCC[C@H](NC(=O)OCCCCCn1ccc(=O)[nH]c1=O)C(=O)O	resazurin	inhibition		H37Rv		6.25 µg/mL	8%
COc1cccc(N2CCN(CN3C(=O)/C(=N\c4ncc(Cc5cc(OC)c(OC)c(OC)c5)c(N)n4)c4cc(C)ccc43)CC2)c1		MIC		H37Rv			15 µg/mL
Clc1cn2cc(-c3ccc(Br)cc3)nc2s1		MIC		H37Rv			>6.25 µg/mL
CCN=c1cc2n(-c3ccccc3)c3ccc(Cl)cc3nc-2cc1Nc1ccccc1		MIC		H37Rv			2 µg/mL
COc1cc(-c2nnc(SCC(=O)c3ccc(Cl)cc3Cl)o2)cc(OC)c1OC	BACTEC	inhibition		H37Rv		6.25 µg/mL	12%
COS(=O)(=O)[O-].COc1cc2c(cc1OC)C1CCN3C(=O)CCC3[N+]1(C)CC2	BACTEC	inhibition		H37Rv		12.5 µg/mL	0%
COc1ccc(/C=C/C2=NN(C(=N)N)C(c3ccc(OC)cc3)C2)cc1	resazurin	MIC	katG S315T isoniazid resistant	RGH103			0.3 µM
Nc1nc(-c2ccccc2)c(N=Nc2c(Cl)cccc2Cl)s1	BACTEC	MIC bound		H37Rv			>6.25 µg/mL
COc1cc(Cc2cnc(/N=C3\C(=O)N(CN4CCN(c5ccccn5)CC4)c4ccc(C)cc43)nc2N)cc(OC)c1OC		MIC		H37Rv			25 µg/mL
CC(C)N=c1cc2n(-c3ccc(Cl)cc3)c3ccccc3nc-2cc1Nc1ccc(Cl)cc1		MIC		2219 (INH RIF-RES)			0.12 µg/mL
O=C(N/N=C/c1ccc(Cl)cc1Cl)c1ccncc1		MIC		16PI			>5 µg/mL
CCO/N=C1/C(=O)N(CCOCCOCCOCCN2C(=O)C(=O)c3cc(F)ccc32)c2ccc(F)cc21	visual reading	MIC		H37Rv			62.5 µg/mL
Cc1cc(N=C2C=C(Br)C(=O)C(Br)=C2)cc(CN(CC(=O)[O-])CC(=O)[O-])c1O.[Na+].[Na+]	BACTEC	MIC bound		H37Rv			>12.5 µg/mL
O=C(N/N=C/c1ccccc1)c1cc(-c2ccc(F)cc2F)ccc1O	BACTEC	inhibition		H37Rv		6.25 µg/mL	0%
O=C(CCC(F)(F)F)N1CC(C2CC2)C1	fluorescence	EC50		H37Rv	THP-1		0.05–0.25 µM
COc1c(N2CCNC(C)C2)c(F)cc2c(=O)c(C(=O)O)cn(C3CC3)c12		MIC90		Quinolone-susceptible isolates			0.39 µg/mL
COC(=O)Nc1cn2nc(C)sc2n1	BACTEC	MIC bound		H37Rv			>12.5 µg/mL
Cc1ccccc1/C=C/C1=NN(C(=N)N)C(c2ccccc2C)C1	resazurin	MIC	katG S315T isoniazid resistant	RGH103			0.66 µM
COc1cccc(-c2cn3cc(Cl)sc3n2)c1		MIC		H37Rv			>6.25 µg/mL
Cc1ccc(NC(=O)c2ccccc2)cc1Cl	BACTEC	MIC		H37Rv	VERO		3.13 µg/mL
N=C(N)N1N=C(/C=C/c2ccc(Cl)cc2)CC1c1ccc(Cl)cc1	resazurin	MIC		H37Rv			0.87 µM
Cc1cc(NC(=O)c2cc(I)ccc2O)no1		MIC		My 331/88			125 µM
COc1cc(Cc2cnc(/N=C3\C(=O)N(CN4CCN(c5ccc(Cl)cc5)CC4)c4ccc(C)cc43)nc2N)cc(OC)c1OC		MIC		H37Rv			28 µg/mL
CC(C)C[C@@H]1NC(=O)[C@H](Cc2c[nH]c3ccccc23)NC(=O)[C@@H](CCCN=C(N)N)NC(=O)[C@H](CC(N)=O)NC(=O)[C@H](C(C)C)NC(=O)[C@@H](CC(C)C)NC1=O	turbidity	MIC90		HN353			2.97 µM
Cc1cc(F)ccc1C1CN(C(=O)CCC(F)(F)F)C1	fluorescence	EC50		H37Rv	THP-1		0.05–0.25 µM
Cc1cc(C)nc(NS(=O)(=O)c2ccc(NC(=O)c3cccn4c(=O)c5ccccc5nc34)cc2)n1	resazurin	MIC bound		H37Rv			>6.25 µg/mL
O=C(Nc1ncn[nH]1)c1cc(F)ccc1O		MIC		My 331/88			500 µM
Clc1ccc(-c2cn3cc(Cl)sc3n2)cc1		inhibition		H37Rv		6.25 µg/mL	0%
C/C(=C\CO)CCC[C@H](C)CCC[C@H](C)CCCC(C)C		inhibition		H37Rv		100 µg/mL	92%
O=C(N/N=C/c1ccccc1F)c1cc(-c2ccc(F)cc2F)ccc1O	resazurin	inhibition		H37Rv		6.25 µg/mL	17%
Clc1cn2cc(-c3ccncc3)nc2s1		MIC		H37Rv			>6.25 µg/mL
COc1cc(-c2nnc(SCC(=O)c3ccc(C)cc3)o2)cc(OC)c1OC	BACTEC	inhibition		H37Rv		6.25 µg/mL	48%
O=C(NN1C(=O)CSC1c1ccc(F)cc1)c1ccncc1		MIC		16PI			5 µg/mL
CC(=O)C1(N=Nc2ccc(S(=O)(=O)Nc3nccc(C)n3)cc2)CCOC1=O	BACTEC	inhibition		H37Rv		12.5 µg/mL	9%
O=C(CCC(F)(F)F)N1CC(c2ccc(Cl)nc2)C1	fluorescence	EC50		H37Rv	THP-1		0.05–0.25 µM
O=C(N/N=C/c1ccc2c(c1)OCO2)c1ccccc1	BACTEC	inhibition		H37Rv		12.5 µg/mL	3%
CCO/N=C1/C(=O)N(CCOCCOCCOCCN2C(=O)C(=O)c3ccccc32)c2ccc(C)cc21	visual reading	MIC		H37Rv			256 µg/mL
Cc1cc(NC(=O)c2ccc(Cl)cc2O)no1		MIC		My 331/88			8 µM
CO/N=C1/C(=O)N(CCOCCOCCOCCN2C(=O)C(=O)c3ccccc32)c2ccc(C)cc21	visual reading	MIC	MDR				256 µg/mL
CCN=c1cc2n(-c3ccc(Cl)cc3)c3ccccc3nc-2cc1Nc1ccc(Cl)cc1		MIC		2230 (SM INH RIF-RES)			0.06 µg/mL
CCO/N=C1/C(=O)N(CCOCCOCCOCCn2c(O)c(N=O)c3ccccc32)c2ccc(C)cc21	visual reading	MIC	MDR				512 µg/mL
COc1ccccc1NC(=O)C(N=Nc1ccc(S(=O)(=O)Nc2onc(C)c2C)cc1)C(C)=O	BACTEC	MIC bound		H37Rv			>12.5 µg/mL
O=C(NN1C(=O)CS(=O)(=O)C1c1ccc(Cl)cc1Cl)c1ccncc1		MIC		16PI			>5 µg/mL
COc1cccc2c1CCC1(O)OC(=O)CC21	resazurin	MIC bound		H37Rv			>6.25 µg/mL
O=C(N/N=C/c1ccc(O)cc1)c1cc(-c2ccc(F)cc2F)ccc1O	resazurin	inhibition		H37Rv		6.25 µg/mL	17%
CC(C)C[C@@H]1NC(=O)[C@H](Cc2c[nH]c3ccccc23)NC(=O)[C@@H](CCCCN)NC(=O)[C@H](CC(N)=O)NC(=O)[C@H](C(C)C)NC(=O)[C@@H](CC(C)C)NC1=O	turbidity	EC50		HN878			0.41 µM
CCOc1ccc(-c2nnc(SCC3(c4ccccc4)OCCO3)o2)cc1	BACTEC	inhibition		H37Rv		6.25 µg/mL	0%
CCOC(=O)/C=C/c1ccc(OC)cc1	resazurin	MIC		H37Ra			485 µM
C=C1CCCC2[C@@]1(C)CC[C@H](C)[C@@]2(C)Cc1cc(O)ccc1O	BACTEC	MIC bound		H37Rv			>12.5 µg/mL
COc1ccc(-c2cn3ccsc3n2)cc1		MIC		H37Rv			>6.25 µg/mL
O=C(Nc1cncs1)c1cc(F)ccc1O		MIC		My 331/88			250 µM
O=C(c1ccccc1)C1Nc2ccc(Cl)cc2C2c3ccccc3OC12	BACTEC	MIC bound		H37Rv			>12.5 µg/mL
Cc1ccc(-c2cn3ccsc3n2)cc1		inhibition		H37Rv		6.25 µg/mL	0%
O=C(N/N=C/c1ccc(F)cc1)c1cc(-c2ccc(F)cc2F)ccc1O	resazurin	MIC		H37Rv			>6.25 µg/mL
CN1CCOP(=O)(c2ccccc2)N1	BACTEC	inhibition		H37Rv		128 µg/mL	75%
Cc1ccc(C(=O)Nn2cncn2)c(O)c1		MIC		My 331/88			1000 µM
NC(=O)c1cn(Cc2ccccc2)c(=O)n1Cc1ccccc1	BACTEC	inhibition		H37Rv		12.5 µg/mL	0%
CCn1cc(C(=O)O)c(=O)c2c(F)c(N3CCN(CN4C(=O)/C(=N\c5ncc(Cc6cc(OC)c(OC)c(OC)c6)c(N)n5)c5cc(C)ccc54)C(C)C3)c(F)cc21		MIC		H37Rv			100 µg/mL

Repeating the first 12 entries:

structure	read by	measure	mutations	strain or isolate	cell line	tested at	result
Nc1nc(N)c2nc3c(nc2n1)CCCCCCCCCC3	BACTEC	inhibition		H37Rv		12.5 µg/mL	-1%
CC(C)=CCC/C(C)=C/CC/C(C)=C/CO		MIC		H37Rv			8 µg/mL
CO/N=C1/C(=O)N(CCOCCOCCOCCn2c(O)c(N=NC(N)=O)c3cc(F)ccc32)c2ccc(F)cc21	visual reading	MIC		H37Rv			16 µg/mL
C[C@]1(C(=O)O)CCC[C@]2(C)C3=CC(=O)CCC3=CC[C@@H]12	BACTEC	MIC bound		H37Rv			>12.5 µg/mL
COc1cc(/C=N/NC(=O)c2cc(-c3ccc(F)cc3F)ccc2O)ccc1O	resazurin	inhibition		H37Rv		6.25 µg/mL	27%
COc1ccc(-c2cn3cc(Cl)sc3n2)cc1		inhibition		H37Rv		6.25 µg/mL	78%
Cc1ccc(C(=O)Nc2ncn[nH]2)c(O)c1		MIC		My 331/88			125 µM
CO/N=C1/C(=O)N(CCOCCOCCOCCN2C(=O)C(=O)c3cc(F)ccc32)c2ccc(C)cc21	visual reading	MIC		H37Rv			128 µg/mL
CC(C)C[C@@H]1NC(=O)[C@H](Cc2c[nH]c3ccccc23)NC(=O)[C@H](CCCCN)NC(=O)[C@H](CC(N)=O)NC(=O)[C@H](C(C)C)NC(=O)[C@@H](CC(C)C)NC1=O	turbidity	MIC90		HN353			>30 µM
Cc1oc(-c2ccccc2F)nc1C(N)=O	BACTEC	MIC bound		H37Rv			>12.5 µg/mL
CC(C)CCC[C@@H](C)CCC[C@@H](C)CCCC1(C)OC1CO		MIC		H37Rv			8 µg/mL
Cc1cc(C)nc(NC(=O)c2ccccc2O)n1		MIC		My 331/88			1000 µM

Two numbers with a dash give a range or band. MIC50, MIC90 and the like: level of inhibition, or share of isolates inhibited. Conditions beyond the fields shown may differ between rows. Percent inhibition refers to the dose given; in toxicity tests it is the harm to the cells. An empty or dashed field is not shown. ECn is the concentration giving n% inhibition of infection, replication or growth.